Measured values from several laboratories, pooled; numbers as filed in NIAID ChemDB.

All rows: enzyme or target tests; agent: HIV-1; protein: Protease; read by: HPLC; endpoint: IC50

ICn: concentration for n% inhibition. An empty or dashed field is not shown. Neighbouring rows are from separate reports.

SMILES | conditions | mutations | result
CC(C)(C)OC(=O)N[C@@H](Cc1ccccc1)[C@H](O)CNC[C@@H](O)[C@H](Cc1ccccc1)NC(=O)COc1cccc2ccccc12 | pH 5.5 | - | ~10 µM
CC(C)c1ccccc1SC1=C(O)CC(CCCC(=O)N2CCSCC2)(c2ccccc2)OC1=O | pH 4.7 | - | 0.285 µM
CC(C)(C)OC(=O)N[C@@H](Cc1ccccc1)[C@H](O)CNC[C@@H](O)[C@H](Cc1ccc(OCC(=O)N2CCOCC2)cc1)NC(=O)OC(C)(C)C | - | PR-A71T V82A | 1.14 µM
CC1(C)CC[C@]2(C(=O)O)CC[C@]3(C)C(=CC[C@@H]4[C@@]5(C)CC[C@H](OC(=O)CCCCC(=O)O)C(C)(C)[C@@H]5CC[C@]43C)[C@@H]2C1 | - | - | 3 µM
CC(C)C[C@H](NC(=O)[C@@H](NC(=O)CCCCCCCCCCCCCCC(=O)N[C@@H](Cc1ccc(N)cc1)C(=O)N[C@@H](Cc1ccccc1)C(=O)O)C(C)O)C(=O)N[C@@H](Cc1ccccc1)C(N)=O | - | - | 0.6 µM
CC(C)(C)OC(=O)N1CCC[C@H]1[C@H](O)CNC[C@H](O)[C@@H]1CCCN1C(=O)OC(C)(C)C | pH 5.5 | - | >10 µM
Cc1cccc(C)c1OCC(=O)N[C@@H](Cc1ccccc1)[C@H](O)C(=O)N1CSC(C)(C)[C@H]1C(=O)NCc1cccc(C(N)=O)c1 | - | - | <0.05 µM
C[C@H]1[C@H](C)CC[C@]2(C(=O)O)CC[C@]3(C)C(=CC[C@@H]4[C@@]5(C)CC[C@H](O)C(C)(C)[C@@H]5CC[C@]43C)[C@H]12 | - | - | 8 µM
Cc1cccc(C)c1OCC(=O)N[C@@H](Cc1ccccc1)[C@H](O)C(=O)N1CSC(C)(C)[C@H]1C(=O)NCc1ccc2c(c1)OCO2 | - | - | >0.05 µM
O=S(=O)(O)c1cc(O)c(N=Nc2ccc3c(S(=O)(=O)O)cccc3c2O)cc1Cl | - | - | 68 µM
COC(=O)[C@]12CCC(C)(C)C[C@H]1C1=CC[C@@H]3[C@@]4(C)CC[C@H](NC(=O)CCCCC(=O)OC[C@H]5O[C@@H](n6cc(C)c(=O)[nH]c6=O)C[C@@H]5N=[N+]=[N-])C(C)(C)[C@@H]4CC[C@@]3(C)[C@]1(C)CC2 | - | - | 20 µM
Cc1cccc(C)c1OCC(=O)N[C@@H](Cc1ccccc1)[C@H](O)C(=O)N1CSC(C)(C)[C@H]1C(=O)NCc1cccnc1 | - | - | <0.05 µM
CC(C)C[C@H](NC(=O)[C@@H](NC(=O)CCCCCCCCCCCCCCC(=O)N[C@@H](CC(N)=O)C(=O)N[C@@H](Cc1ccccc1)C(=O)O)C(C)C)C(=O)N[C@@H](Cc1ccccc1)C(N)=O | - | - | 1.3 µM
CC(C)(C)OC(=O)N1Cc2ccccc2C[C@H]1[C@@H](O)CNC[C@H](O)[C@@H]1Cc2ccccc2CN1C(=O)OC(C)(C)C | pH 5.5 | - | >10 µM
COC(=O)c1ccc(CNC(=O)[C@H]2N(C(=O)[C@@H](O)[C@H](Cc3ccccc3)NC(=O)COc3c(C)cccc3C)CSC2(C)C)cc1 | - | - | >0.05 µM
CSC[C@H](NC(=O)COc1cccc2ccccc12)C(=O)N[C@@H](Cc1ccccc1)[C@H](O)C(=O)N1CSC[C@H]1C(=O)NC(C)(C)C | - | - | 0.012 µM
COC(=O)[C@]12CCC(C)(C)C[C@H]1C1=CC[C@@H]3[C@@]4(C)CC[C@H](OC(=O)CCCCC(=O)O)C(C)(C)[C@@H]4CC[C@@]3(C)[C@]1(C)CC2 | - | - | 7.5 µM
CC(C)C[C@H](NC(=O)[C@@H](NC(=O)CCCCCCCCCCCCCCC(=O)N[C@@H](CC(N)=O)C(=O)N[C@@H](Cc1cccc2ccccc12)C(=O)O)C(C)O)C(=O)N[C@H](C(N)=O)C1CCCCC1 | - | - | 0.31 µM
CC1(C)CC[C@]2(C(=O)O)CC[C@]3(C)C(=CC[C@@H]4[C@@]5(C)CC[C@H](O)C(C)(C)[C@@H]5CC[C@]43C)[C@@H]2C1 | - | - | 8 µM
CC(C)c1ccccc1SC1=C(O)CC(CCCCC(=O)NCc2ccccc2)(c2ccccc2)OC1=O | pH 4.7 | - | 0.026 µM
Cc1cc(-c2ccc(N=Nc3c(S(=O)(=O)O)cc4cc(S(=O)(=O)O)cc(N)c4c3O)c(C)c2)ccc1N=Nc1c(S(=O)(=O)O)cc2cc(S(=O)(=O)O)cc(N)c2c1O | - | - | 2.6 µM
COC(=O)[C@]12CCC(C)(C)C[C@H]1C1=CC[C@@H]3[C@@]4(C)CC[C@H](OC(=O)CCCCC(=O)OC[C@H]5O[C@@H](n6cc(C)c(=O)[nH]c6=O)C[C@@H]5N=[N+]=[N-])C(C)(C)[C@@H]4CC[C@@]3(C)[C@]1(C)CC2 | - | - | 4 µM
CC(C)(C)NC(=O)[C@@H]1CCCN1C(=O)C(=O)[C@@H](Cc1ccccc1)NC(=O)[C@H](CC(N)=O)NC(=O)OCc1ccccc1 | - | - | 0.3 µM
CC(C)(C)NC(=O)[C@@H]1CCCN1C(=O)[C@@H](O)[C@H](Cc1ccccc1)NC(=O)[C@H](CC(N)=O)NC(=O)OCc1ccccc1 | - | - | 3 µM
CC(C)[C@H](NC(=O)OCc1ccccc1)C(=O)N[C@@H](Cc1ccccc1)[C@H](O)CNC[C@@H](O)[C@H](Cc1ccccc1)NC(=O)[C@@H](NC(=O)OCc1ccccc1)C(C)C | pH 5.5 | - | <10 µM
O=c1oc2c(-c3ccccc3)cccc2c(O)c1Cc1ccccc1 | pH 5.2 | - | 8.1 µM
Cc1cn([C@H]2C[C@H](N=[N+]=[N-])[C@@H](COC(=O)CCCCC(=O)O/N=C3\CC[C@]4(C)[C@H]5CC=C6[C@@H]7CC(C)(C)CC[C@]7(C(=O)O)CC[C@@]6(C)[C@]5(C)CC[C@H]4C3(C)C)O2)c(=O)[nH]c1=O | - | - | 1.9 µM
C[C@H]1[C@H](C)CC[C@]2(C(=O)O)CC[C@]3(C)C(=CC[C@@H]4[C@@]5(C)CC[C@H](O)C(C)(C)[C@@H]5CC[C@]43C)[C@H]12 | - | - | 8 µM
COc1c(O)cc2oc3cc(O)c(CC=C(C)C)c(O)c3c(=O)c2c1CC=C(C)C | - | - | 5.12 ± 0.41 µM
O=c1cc(O)cc(-c2ccccc2)o1 | pH 5.2 | - | >200 µM
CC(C)(C)OC(=O)N[C@@H](Cc1ccccc1)[C@H](O)CNC[C@@H](O)[C@H](Cc1ccccc1)NC(=O)OC(C)(C)CCCN | pH 5.5 | - | 10 µM
Nc1c(N=Nc2ccc(-c3ccc(N=Nc4cc(S(=O)(=O)O)c5ccccc5c4N)cc3)cc2)cc(S(=O)(=O)O)c2ccccc12 | - | - | 0.78 µM
COC(=O)CCCC(=O)O[C@H]1CC[C@@]2(C)C(CC[C@]3(C)C2CC=C2C4CC(C)(C)CC[C@]4(C(=O)OC)CC[C@]23C)C1(C)C | - | - | >50 µM
CC(C)(C)NC(=O)N[C@@H](Cc1ccccc1)[C@H](O)CNC[C@@H](O)[C@H](Cc1ccccc1)NC(=O)OC(C)(C)C | pH 5.5 | - | <10 µM
CC(C)CN(C[C@@H](O)[C@H](Cc1ccccc1)NC(=O)[C@H](CC(N)=O)NC(=O)c1ccc2ccccc2n1)C(=O)NC(C)(C)C | - | PR-A71T V82A | 0.0034 µM
O=c1cc(O)c2ccccc2o1 | pH 5.2 | - | 160 µM
CC(C)(C)NC(=O)[C@@H]1CSCN1C(=O)[C@@H](O)[C@H](Cc1ccccc1)NC(=O)[C@@H](NC(=O)COc1cccc2ccccc12)C(C)(C)C | - | - | 0.0041 µM
Cc1cccc(C)c1OCC(=O)N[C@@H](Cc1ccccc1)[C@H](O)C(=O)N1CSC(C)(C)[C@H]1C(=O)NCc1ccc(C(N)=O)cc1 | - | - | >0.05 µM
Cc1cn([C@H]2C[C@H](N=[N+]=[N-])[C@@H](COC(=O)CCCCC(=O)N[C@H]3CC[C@]4(C)[C@H]5CC=C6[C@@H]7CC(C)(C)CC[C@]7(C(=O)O)CC[C@@]6(C)[C@]5(C)CC[C@H]4C3(C)C)O2)c(=O)[nH]c1=O | - | - | 1.2 µM
CC[C@H](C)[C@H](NC(=O)[C@@H](NC(=O)CCCCCCCCCCCCCCC(=O)N[C@@H](CC(N)=O)C(=O)N[C@@H](CC1CCCCC1)C(=O)O)C(C)O)C(=O)N[C@@H](Cc1ccccc1)C(N)=O | - | - | 0.77 µM
CC(C)(C)NC(=O)[C@H]1N(C(=O)[C@@H](O)[C@H](Cc2ccccc2)NC(=O)[C@H](CC(N)=O)NC(=O)COc2cccc(Nc3ccccc3)c2)CSC1(C)C | - | - | 0.003 µM
CC(C)c1ccccc1SC1=C(O)CC(CCCC(=O)N(C)Cc2ccccc2)(c2ccccc2)OC1=O | pH 4.7 | - | 0.676 µM
Cc1cccc(C)c1OCC(=O)N[C@@H](Cc1ccccc1)[C@H](O)C(=O)N1CSC(C)(C)[C@H]1C(=O)NCc1ccccc1 | - | - | <0.05 µM
CC(C)(C)OC(=O)N[C@@H](Cc1ccccc1)[C@H](O)CNC[C@@H](O)[C@H](Cc1ccccc1)NC(=O)[C@H](Cc1ccccc1)NC(=O)OCc1ccccc1 | pH 5.5 | - | <10 µM
C[C@H]1[C@H](C)CC[C@]2(C)CC[C@]3(C)C(=CC[C@@H]4[C@@]5(C)CC[C@H](O)C(C)(C)[C@@H]5CC[C@]43C)[C@H]12 | - | - | 80 µM
CC(C)c1ccccc1SC1=C(O)CC(CCCCC(=O)N2CCNCC2)(c2ccccc2)OC1=O | pH 4.7 | - | 0.234 µM
Cc1cn([C@H]2C[C@H](N=[N+]=[N-])[C@@H](COC(=O)CCCCC(=O)O[C@H]3CC[C@]4(C)[C@H]5CC=C6[C@@H]7CC(C)(C)CC[C@]7(C(=O)O)CC[C@@]6(C)[C@]5(C)CC[C@H]4C3(C)C)O2)c(=O)[nH]c1=O | - | - | 3.2 µM
COC(=O)[C@]12CCC(C)(C)CC1C1=CCC3[C@@]4(C)CC[C@H](N)C(C)(C)C4CC[C@@]3(C)[C@]1(C)CC2 | - | - | >20 µM
CSCC[C@H](NC(=O)CCCCCCCCCCCCCCC(=O)N[C@@H](CC(N)=O)C(=O)N[C@@H](Cc1ccccc1)C(=O)O)C(=O)N[C@@H](CC(C)C)C(=O)N[C@@H](Cc1ccccc1)C(N)=O | - | - | 1.2 µM
O=C(Nc1ccc2c(O)c(N=Nc3ccccc3)c(S(=O)(=O)O)cc2c1)Nc1ccc2c(O)c(N=Nc3ccc(C(=O)O)cc3)c(S(=O)(=O)O)cc2c1 | - | - | 4 µM
CCOc1ccccc1CNC(=O)[C@H]1N(C(=O)[C@@H](O)[C@H](Cc2ccccc2)NC(=O)COc2c(C)cccc2C)CSC1(C)C | - | - | >0.05 µM
COC(=O)[C@]12CCC(C)(C)CC1C1=CCC3[C@@]4(C)CC[C@H](NC(=O)CCCCC(=O)O)C(C)(C)C4CC[C@@]3(C)[C@]1(C)CC2 | - | - | 3 µM
CCc1c(O)cc(-c2ccccc2)oc1=O | pH 5.2 | - | 11 µM
CC(C)(C)OC(=O)N[C@@H](CC1CCCCC1)[C@H](O)CNC[C@@H](O)[C@H](CC1CCCCC1)NC(=O)OC(C)(C)C | pH 5.5 | - | <10 µM
CC(C)c1ccccc1SC1=C(O)CC(CCCCC(=O)N2CCOCC2)(c2ccccc2)OC1=O | pH 4.7 | - | 0.195 µM
Cc1c(O)cccc1C(=O)N[C@@H](Cc1ccccc1)[C@H](O)C(=O)N1CSC(C)(C)[C@H]1C(=O)NCc1ccc2c(c1)OCO2 | - | - | <0.05 µM
CC(C)(C)NC(=O)[C@@H]1CCCN1C(=O)[C@@H](O)[C@H](Cc1ccccc1)NC(=O)[C@H](CC(N)=O)NC(=O)c1ccc2ccccc2n1 | - | - | 0.044 µM
Cc1c(O)cccc1C(=O)N[C@@H](Cc1ccccc1)[C@H](O)C(=O)N1CSC(C)(C)[C@H]1C(=O)NC(C)(C)C | - | - | <0.05 µM
CC1(C)CC[C@]2(C)CC[C@]3(C)C(=CC[C@@H]4[C@@]5(C)CC[C@H](O)C(C)(C)[C@@H]5CC[C@]43C)[C@@H]2C1 | - | - | >100 µM

8 of the rows above, restated:

| SMILES | conditions | mutations | result |
|---|---|---|---|
| CC(C)c1ccccc1SC1=C(O)CC(CCCC(=O)N2CCSCC2)(c2ccccc2)OC1=O | pH 4.7 | - | 0.285 µM |
| CC1(C)CC[C@]2(C(=O)O)CC[C@]3(C)C(=CC[C@@H]4[C@@]5(C)CC[C@H](OC(=O)CCCCC(=O)O)C(C)(C)[C@@H]5CC[C@]43C)[C@@H]2C1 | - | - | 3 µM |
| Nc1c(N=Nc2ccc(-c3ccc(N=Nc4cc(S(=O)(=O)O)c5ccccc5c4N)cc3)cc2)cc(S(=O)(=O)O)c2ccccc12 | - | - | 0.78 µM |
| COC(=O)[C@]12CCC(C)(C)CC1C1=CCC3[C@@]4(C)CC[C@H](N)C(C)(C)C4CC[C@@]3(C)[C@]1(C)CC2 | - | - | >20 µM |
| CC(C)(C)OC(=O)N1Cc2ccccc2C[C@H]1[C@@H](O)CNC[C@H](O)[C@@H]1Cc2ccccc2CN1C(=O)OC(C)(C)C | pH 5.5 | - | >10 µM |
| CC(C)(C)OC(=O)N[C@@H](CC1CCCCC1)[C@H](O)CNC[C@@H](O)[C@H](CC1CCCCC1)NC(=O)OC(C)(C)C | pH 5.5 | - | <10 µM |
| COC(=O)[C@]12CCC(C)(C)CC1C1=CCC3[C@@]4(C)CC[C@H](NC(=O)CCCCC(=O)O)C(C)(C)C4CC[C@@]3(C)[C@]1(C)CC2 | - | - | 3 µM |
| CC1(C)CC[C@]2(C(=O)O)CC[C@]3(C)C(=CC[C@@H]4[C@@]5(C)CC[C@H](O)C(C)(C)[C@@H]5CC[C@]43C)[C@@H]2C1 | - | - | 8 µM |